{"sequences": {"note": "Amino acid sequences for entries named in this document (tags omitted). Residues count along the entry.", "UniProt Q93009, 62-205": "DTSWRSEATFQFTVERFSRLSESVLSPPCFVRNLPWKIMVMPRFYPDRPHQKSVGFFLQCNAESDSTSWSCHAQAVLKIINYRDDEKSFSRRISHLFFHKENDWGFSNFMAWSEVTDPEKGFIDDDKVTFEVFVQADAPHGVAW"}, "source": "paper PMC3589550", "about": "(Nature structural & molecular biology, 2011)", "target": "HAUSP TRAF domain (HAUSP^62–205) (Homo sapiens, UniProt Q93009)", "assay_type": "binding", "settings": "ITC; deletion of upstream region", "data": [{"smiles": "CSCC[C@H](NC(=O)CNC(=O)[C@H](CO)NC(=O)[C@@H](NC(=O)[C@H](CO)NC(=O)[C@H](C)NC(=O)CNC(=O)[C@@H](N)CCC(=O)O)[C@@H](C)O)C(=O)O", "note": "[vIRF4^209–216]", "values": [{"measurement": "fold decrease in TRAF binding affinity compared with vIRF4^202–216", "value": 25, "unit": "fold"}]}]}
